Reference: PubChem BioAssay AID624099 (ICCB-Longwood, 2012)
Test: 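Host factors E2 relies on to silence an HPV18 LCR reporter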 (primary screen). Cell system: human C33A cervical carcinoma cells (HPV-negative) stably expressing BPV1 E2 and an HPV18 LCR luciferase reporter. Reagents: siRNA pool against human genes, 40 nM. Timing: 72 h. Detection: 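Per-well luciferase luminescence, z-scored on each plate against the plate mean and SD with control wells left out, then averaged across three replicate plates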. Scale: mean z-score and z-score: higher = stronger reporter signal, weaker E2 silencing. Hit rule: 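Hit if mean z-score reaches 2 and two or more of three replicate z-scores also reach 2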.
The deposit covers about 21,000 reagents; shown is a part drawn at random. In the full data, 497 (2.4%) are marked active. 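Higher z means weaker E2 silencing; only reporter increases were scored, and knock-downs that hurt cell survival may mask genuine repressor factors.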 A number with no mark means an inactive call. Reagents against one gene are numbered here.

no.	gene symbol	reagent	mean z-score	z-score, replicate A	z-score, replicate B	z-score, replicate C
1	NDUFB4 (GeneID 4710)	1	0.07	0.16	0.02	0.04
2	IFI6 (GeneID 2537)	1	-0.09	-0.41	0.06	0.08
3	NSMCE4A (GeneID 54780)	1	-0.89	-1.11	-0.84	-0.72
4	TNFSF10 (GeneID 8743)	1	1.17	1.23	1.14	1.14
5	DRD2 (GeneID 1813)	1	0.2	0.08	0.08	0.44
6	MICALL1 (GeneID 85377)	1	-1.33	-1.12	-1.36	-1.51
7	PPCS (GeneID 79717)	1	-0.62	-0.77	-0.61	-0.49
8	PTCHD3P1 (GeneID 387647)	1	-1.43	-1.67	-1.48	-1.15
9	PRMT2IP (GeneID 56905)	1	1.33	1.82	1.23	0.94
10	TAF10 (GeneID 6881)	1	-1.47	-1.48	-1.44	-1.5
11	CHD6 (GeneID 84181)	1	0.1	0	0.13	0.16
12	MAGEB4 (GeneID 4115)	1	0.07	-0.34	0.16	0.4
13	LOC284901 (retired record) (GeneID 284901)	1	-0.08	0.11	-0.45	0.11
14	PGRMC1 (GeneID 10857)	1	-1.74	-1.66	-1.91	-1.63
15	TLX2 (GeneID 3196)	1	2.41 (active)	2.18	2.27	2.78
16	TCERG1 (GeneID 10915)	1	0.4	0.37	0.55	0.26
17	AUNIP (GeneID 79000)	1	0.56	0.75	0.42	0.52
18	ABRAXAS1 (GeneID 84142)	1	-1.15	-1.44	-1.15	-0.86
19	C2CD3 (GeneID 26005)	1	-0.54	-1.01	-0.25	-0.36
20	SYT10 (GeneID 341359)	1	-0.87	-0.88	-0.84	-0.88
21	AMPD1 (GeneID 270)	1	0.51	0.61	0.39	0.54
22	DDX31 (GeneID 64794)	1	-2.5	-2.79	-2.38	-2.32
23	SLC30A10 (GeneID 55532)	1	-0.69	-0.84	-0.6	-0.61
24	H1-2 (GeneID 3006)	1	3.93 (active)	4.74	3.49	3.56
25	CCDC34 (GeneID 91057)	1	0.82	0.83	0.62	1.02
26	CFAP206 (GeneID 154313)	1	-0.44	0.13	-0.64	-0.83
27	MTERF3 (GeneID 51001)	1	-0.75	-0.72	-1.08	-0.46
28	DMBT1 (GeneID 1755)	1	1.5	1.48	1.43	1.59
29	PHTF2 (GeneID 57157)	1	-1.2	-1.1	-1.25	-1.26
30	ZNF230 (GeneID 7773)	1	-0.36	-0.28	-0.41	-0.39
31	LINC01994 (GeneID 401103)	1	0.23	0.42	-0.35	0.62
32	LOC400010 (retired record) (GeneID 400010)	1	0.06	0.26	-0.23	0.15
33	ARRDC1-AS1 (GeneID 85026)	1	0.79	0.68	0.61	1.06
34	CTNNAL1 (GeneID 8727)	1	-0.78	-0.7	-0.93	-0.7
35	ELF3 (GeneID 1999)	1	0.21	0.59	0.35	-0.32
36	KLHDC9 (GeneID 126823)	1	-1.6	-1.74	-1.56	-1.5
37	GPR142 (GeneID 350383)	1	-0.45	-0.3	-0.51	-0.54
38	GPR176 (GeneID 11245)	1	0.39	0	0.09	1.07
39	NCAM1 (GeneID 4684)	1	0.56	0.52	0.76	0.39
40	RPL29P31 (GeneID 284064)	1	-0.08	0.11	-0.5	0.14
41	BAALC (GeneID 79870)	1	0.32	0.57	0.49	-0.09
42	LOC388097 (retired record) (GeneID 388097)	1	-1.29	-1.67	-1.01	-1.19
43	ZNF250 (GeneID 58500)	1	0.28	0.62	0.4	-0.18
44	GABPA (GeneID 2551)	1	0.05	0.31		-0.21
45	ARSF (GeneID 416)	1	0.27	0.18	0.47	0.17
46	LRRC8C-DT (GeneID 400761)	1	0.49	0.58	0.56	0.34
47	FZD9 (GeneID 8326)	1	0.16	0.47	0.21	-0.2
48	SNX29 (GeneID 92017)	1	0.03	0.04	-0.02	0.08
49	SNX29 (GeneID 92017)	2	-1.13	-0.88	-1.19	-1.33
50	RNF113A (GeneID 7737)	1	-0.29	-0.16	-0.58	-0.12
51	CTSC (GeneID 1075)	1	0.64	0.76	0.6	0.57
52	MGP (GeneID 4256)	1	-0.7	-0.58	-0.86	-0.68
53	ADAMTS3 (GeneID 9508)	1	0.37	0.54	0.41	0.15
54	GFER (GeneID 2671)	1	0.37	0.97	0.06	0.08
55	LOC151154 (retired record) (GeneID 151154)	1	0.21	0.05	0.75	-0.17
56	PIWIL2 (GeneID 55124)	1	2.64 (active)	2.12	2.69	3.11
57	ZBTB11 (GeneID 27107)	1	0.62	0.67	0.84	0.34

7 entries from above, reduced to “mean z-score”.
C2CD3 (GeneID 26005)	-0.54
SYT10 (GeneID 341359)	-0.87
AMPD1 (GeneID 270)	0.51
DDX31 (GeneID 64794)	-2.5
SLC30A10 (GeneID 55532)	-0.69
H1-2 (GeneID 3006)	3.93 (active)
CCDC34 (GeneID 91057)	0.82
